Measurements reported in PubChem BioAssay AID504761 (Drosophila RNAi Screening Center, 2011)

Test: 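Genome-wide fly cell screen for genes dengue virus requires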 (primary screen)
Cell system: D.Mel-2 cells from Drosophila
Knock-down reagent: long dsRNA against Drosophila genes
Treatment: infection with dengue virus type 2; dose and infection time not stated
Measured: 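Per well on two replicate plates, imaging gave the percent of cells positive for viral envelope protein, ranked by infection, and a nuclear count of cells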
Scale: infection score: higher = more virus-infected cells; cell count: higher = more cells in the well
Hit rule: 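Low infection ranks in the two replicates (chance level up to 0.065) followed by a retest with a 1.5-fold or larger significant decrease, p below 0.05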
Meaning of the calls: active = confirmed: knock-down lowers infection; inactive = not picked or not confirmed
The screen tested about 22,000 reagents; shown is an unselected part of those with a known target gene and a result. Of all reagents, 116 (0.52%) are marked active. 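Calls depend on retest data that are not deposited; infection was ranked per plate without normalising between plates; the unit of the infection score is not given.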 Raw values are not corrected between plates. A plus sign joins genes that one reagent is predicted to hit. Reagent sequences are not shown. Not stated in the record: the amount of reagent, the time to read-out.

predicted target	amplicon	infection score, replicate 1	infection score, replicate 2	cell count, replicate 1	cell count, replicate 2	activity call
CG17528	DRSC07761	3.94	0.67	5781	5690	inactive
CG13465	DRSC10011	1.62	0.86	6191	6401	inactive
SmydA-2 (SET and MYND domain containing, arthropod-specific, member 2)	DRSC10296	7.07	3.11	6552	6872	inactive
CG10445	DRSC14247	1.46	1.88	6153	6389	inactive
Brd (Bearded)	DRSC09685	1.31	1.7	6120	6309	inactive
CG43861 + CG12508 (retired record)	DRSC02170	1.06	2.13	662	6724	inactive
par-1	DRSC05792	1.92	2.5	4474	4323	inactive
par-1	DRSC06098	2.78	1.2	6360	6324	inactive
par-1	DRSC06616	8.37		2854	375	inactive
par-1	DRSC07660	4.95	2.18	5573	5957	inactive
par-1	DRSC07661	0.91	0.77	6495	6378	inactive
CG11892	DRSC14428	1.3	1.65	6148	6790	inactive
GluRIIC (Glutamate receptor IIC)	DRSC00642	1.41	3.47	6019	6722	inactive
Ravus	DRSC15126	2.36	3.58	6919	7063	inactive
CG14502	DRSC06473	10.5	2.46	6725	6491	inactive
CG17359	DRSC10265	1.61	7.3	5841	5509	inactive
CG17359	DRSC24439	2.17	2.14	6356	6088	inactive
PK2-R2 (Pyrokinin 2 receptor 2)	DRSC16448	2.78	8.94	6617	7369	inactive
PK2-R2 (Pyrokinin 2 receptor 2)	DRSC25536	9.24	11	5933	4635	inactive
mop (myopic)	DRSC11065	5.6	4.77	5590	6284	inactive
mop (myopic)	DRSC28489	0.27	0.52	367	384	inactive
CG30154	DRSC05889	2.01	5.18	6303	6213	inactive
CG30154	DRSC26172	17.2	2.14	5665	6531	inactive
Dref (DNA replication-related element factor)	DRSC03319	4.01	6.45	6683	6772	inactive
CG10958	DRSC17768		11	432	1661	inactive
CG10958	DRSC29583			304	333	inactive
NimB1 (Nimrod B1)	DRSC01880	18.9	7.98	6150	6313	inactive
CG1896	DRSC15397	1.44	1.21	6028	6108	inactive
CG16799	DRSC06626	3.22	2.08	6024	6397	inactive
CG16799	DRSC21553	0.99	11.6	5882	6387	inactive
mthl10 (methuselah-like 10)	DRSC08504	1.63	2.83	6127	6194	inactive
mthl10 (methuselah-like 10)	DRSC08505	3.71	1.9	6195	5941	inactive
rngo (rings lost)	DRSC19903	2.52	5	6239	6157	inactive
rngo (rings lost)	DRSC26936	4.83	8	6321	6453	inactive
CheB38a (Chemosensory protein B 38a)	DRSC03205		10	552	7211	inactive
CheB38a (Chemosensory protein B 38a)	DRSC29814	25.9	9.71	6012	6212	inactive
Mitf	DRSC17212	5.85	0.48	4734	415	inactive
Mitf	DRSC21056	5.17	5.62	5955	6856	inactive
Adsl (Adenylosuccinate lyase)	DRSC15500	8.14	7.2	6228	6503	inactive
Sk1 (Sphingosine kinase 1)	DRSC19774	5.89	3.45	6489	6792	inactive
su(Hw) (suppressor of Hairy wing)	DRSC17074	7.75	10.3	6513	6405	inactive
CG6685	DRSC10695	8.96	7.72	5600	6369	inactive
CG13476	DRSC10019	0.56	3.11	6112	6268	inactive
Clp (Clipper)	DRSC00746	3.84	1.77	5860	5923	inactive
Acph-1 (Acid phosphatase 1)	DRSC14103	4.82	14.6	6369	5589	inactive
Hsp70Bb + Hsp70Ba + Hsp70Bc + 1 more	DRSC21247	1.61	1.37	4341	3953	inactive
Hsp70Bb + Hsp70Ba + Hsp70Bc + 1 more	DRSC21248	4.79	3.43	3154	3209	inactive
Elo68alpha (Elongase 68alpha)	DRSC22725	5.09	5.52	6695	6647	inactive
Pdcd4 (Programmed cell death 4)	DRSC19360	1.8	1.68	6397	6653	inactive
Toll-6	DRSC11304	0.81	2.27	6185	6478	inactive
CG31908	DRSC23243	2.92	5.14	7455	7158	inactive
Obp99a (Odorant-binding protein 99a)	DRSC15303	5.48		1769	387	inactive
CG13148	DRSC06275	3.53	21.5	878	6864	inactive
Su(var)3-3 (Suppressor of variegation 3-3)	DRSC10250	7.64	7.01	5878	6987	inactive
Su(var)3-3 (Suppressor of variegation 3-3)	DRSC24846	2.22	4.2	6610	6504	inactive
FMRFa (FMRFamide)	DRSC07428	6.4	3.15	2938	7307	inactive
pre-mod(mdg4)-AD + mod(mdg4) + pre-mod(mdg4)-X + 3 more	DRSC16328	5.38	7.52	6284	6513	inactive
fsd (fates-shifted)	DRSC06166	6.27	12.9	6617	6170	inactive
CG10628	DRSC02080	25.5	8.11	4580	6032	inactive
CG14805	DRSC18554			302	314	inactive
Rbp1 (RNA-binding protein 1)	DRSC16817	26	24.6	5470	5935	inactive
Obp47b + CG7741	DRSC06330	3.65	13.4	1616	2425	inactive
Obp47b + CG7741	DRSC27574	13.2	30.7	6751	4063	inactive
CG2617	DRSC02712	3.69	3.59	6832	6462	inactive
CG2617	DRSC24947	2.42	2.18	6313	6145	inactive
CG13332	DRSC06367	28.8	16.7	4022	5120	inactive
CG31404	DRSC15497	1.91	1.79	6481	6301	inactive
CG31404	DRSC28438	12.8	14.4	4300	4839	inactive
Dis3	DRSC16034	18.3	8.3	3320	3794	inactive
Arl1 (ADP ribosylation factor-like 1)	DRSC09667	2.72	1.87	5892	5997	inactive
CG7810	DRSC03072	2.42	8.25	6564	3614	inactive
CG7810	DRSC27997	7.13	5.67	6020	3862	inactive
Bmcp	DRSC10808	11.2	23.5	2617	5230	inactive
CG12926	DRSC06239	2.52	3.59	6461	6843	inactive
CG12926	DRSC21930	16.9	26.7	5007	5267	inactive
